A mixed list of measured activities; the numbers were collected in NIAID ChemDB.

All rows: whole-cell or culture tests; species: Herpes simplex virus 2; method: plaque count; measure: inhibition

Rows are shuffled and stem from different studies. Percent inhibition refers to the dose given; in toxicity tests it is the harm to the cells. For "inactive" no cut-off is given.

{"structure": "Nc1ncnc2c1ncn2[C@@H]1O[C@H](CO)[C@@H](O)[C@@H]1O", "strain or isolate": "333", "dose": "25 µM", "cell line": "VERO", "value": "21.7%"}
{"structure": "Cc1cn(N2C[C@H](CO)[C@H]2CO)c(=O)[nH]c1=O", "dose": "10 µg/mL", "cell line": "VERO", "value": "0%"}
{"structure": "CN1C(=O)NC(=O)N([C@H]2C[C@H](O)[C@@H](CO)O2)C1(C)C", "strain or isolate": "35D", "dose": "25 µM", "cell line": "BHK-21", "value": "80%"}
{"structure": "CCCCCCCCCCCCCCCCCCCCCC(=O)OCC(CO[C@@H]1O[C@H](CO)[C@@H](O)[C@H](O)[C@H]1O)OC(=O)CCCCCCCCCCCCC", "strain or isolate": "186", "dose": "50 µg/mL", "cell line": "VERO", "value": "20%"}
{"structure": "CC(C)CCCC(COS(=O)(=O)O)C1CCC2C3CC=C4C[C@H](O)[C@@H](OS(=O)(=O)O)CC4(C)C3CCC12C", "strain or isolate": "G", "dose": "40 µg/mL", "cell line": "VERO", "value": "54.5%"}
{"structure": "CCCCCCCCCCCCCCCCCC(=O)OCC(CO[C@@H]1O[C@H](CO)[C@@H](O)[C@H](O)[C@H]1O)OC(=O)CCCCCCCCCCCCCCCCC", "strain or isolate": "186", "dose": "50 µg/mL", "cell line": "VERO", "value": "inactive"}
{"structure": "S=C(NCCc1ccccc1)Nc1ccc(Oc2ccc(NC(=S)NCCc3ccccc3)cc2)cc1", "dose": "10 µM", "cell line": "VERO", "value": "<50%"}
{"structure": "CCC(=O)C(CCCCCCOc1ccc(OC)cc1Cl)C(=O)CC", "strain or isolate": "333", "dose": "4 µg/mL", "cell line": "VERO", "value": "66%"}
{"structure": "CSc1cnc(=O)n([C@H]2C[C@H](O)[C@@H](CO)O2)c1", "strain or isolate": "333", "dose": "200 µM", "cell line": "HeLa", "value": "59%"}
{"structure": "C/C=C/c1cn([C@H]2C[C@H](O)[C@@H](CO)O2)c(=O)[nH]c1=O", "strain or isolate": "333", "dose": "10 µM", "cell line": "HELA BU", "value": "96%"}
{"structure": "CC(=O)OC(C)C1=C(O)C2=C(C(=O)C1=O)[C@@]1(C)CCCC(C)(C)[C@@H]1C[C@H]2O", "dose": "0.2 µg/mL", "cell line": "VERO", "value": "60%"}
{"structure": "O=C(O)C(O)c1ccccc1", "strain or isolate": "G", "dose": "100 µg/mL", "cell line": "CaSki", "value": "100%"}
{"structure": "O=C1C2=C(C(=O)c3ccccc31)C1Oc3cc4c(cc3C1CO2)OCCO4", "strain or isolate": "G", "dose": "0.4 µg/mL", "cell line": "VERO", "value": "90%"}
{"structure": "C=Cc1cn([C@H]2C[C@H](O)[C@@H](CO)O2)c(=O)[nH]c1=O", "strain or isolate": "333", "dose": "10 µM", "cell line": "HeLa", "value": ">99%"}
{"structure": "CC12CC[C@H](O)CC1=CCC1C2CCC2(C)C(C(=O)COS(=O)(=O)O)CCC12", "strain or isolate": "G", "dose": "40 µg/mL", "cell line": "VERO", "value": "11.4%"}
{"structure": "C/C=C/c1cn([C@H]2C[C@H](O)[C@@H](CO)O2)c(=O)[nH]c1=O", "strain or isolate": "91074", "dose": "100 µM", "cell line": "VERO", "value": "45%"}
{"structure": "C=CCc1cn([C@H]2C[C@H](O)[C@@H](CO)O2)c(=O)[nH]c1=O", "strain or isolate": "333", "dose": "25 µM", "cell line": "HeLa", "value": ">99%"}
{"structure": "CC(=O)O[C@H]1CC2=CCC3C(CCC4(C)C(C(CCC=C(C)C)COS(=O)(=O)O)CCC34)C2(C)C[C@@H]1OS(=O)(=O)O", "strain or isolate": "G", "dose": "40 µg/mL", "cell line": "VERO", "value": "91%"}
{"structure": "C/C=C/c1cn([C@@H]2O[C@H](CO)[C@@H](O)[C@@H]2O)c(=O)[nH]c1=O", "strain or isolate": "72", "dose": "250 µM", "cell line": "VERO", "value": "0%"}
{"structure": "CCCCCCCCCCCCCCCCCCCCCC(=O)OCC(CO[C@@H]1O[C@H](CO)[C@H](O)[C@H](O)[C@H]1O)OC(=O)CCCCCCCCCCCCC", "strain or isolate": "186", "dose": "50 µg/mL", "cell line": "VERO", "value": "25%"}
{"structure": "O=c1[nH]c(=O)n([C@H]2C[C@H](O)[C@@H](CO)O2)cc1/C=C/Br", "strain or isolate": "333", "dose": "10 µM", "cell line": "HELA BU", "value": "98%"}
{"structure": "O=C(O)C(O)c1ccccc1", "strain or isolate": "Strain 333", "dose": "26.4 µg/mL", "cell line": "CaSki Cells", "value": "99.9%"}
{"structure": "CCc1cn([C@@H]2O[C@H](CO)[C@@H](O)[C@@H]2F)c(=O)[nH]c1=O", "strain or isolate": "G", "dose": "0.91 µM", "cell line": "VERO", "value": "90%"}
{"structure": "CSC(=NCCc1ccccc1)Nc1ccc(Oc2ccc(/C=C(/NCCc3ccccc3)SC)cc2)cc1", "dose": "1 µM", "cell line": "VERO", "value": "<50%"}
{"structure": "Nc1nc2c(ncn2COC(CO)CO)c(=O)[nH]1", "strain or isolate": "333", "dose": "2 µM", "cell line": "WI-38", "value": "90%"}
{"structure": "C[C@H](CCC(=O)NCCCCN(CCCNC(=O)CC[C@@H](C)[C@H]1CC[C@H]2[C@@H]3[C@H](OS(=O)(=O)O)C[C@@H]4C[C@H](OS(=O)(=O)O)CC[C@]4(C)[C@H]3C[C@H](OS(=O)(=O)O)[C@]12C)C(=O)CC[C@@H](C)[C@H]1CC[C@H]2[C@@H]3[C@H](OS(=O)(=O)O)C[C@@H]4C[C@H](OS(=O)(=O)O)CC[C@]4(C)[C@H]3C[C@H](OS(=O)(=O)O)[C@]12C)[C@H]1CC[C@H]2[C@@H]3[C@H](OS(=O)(=O)O)C[C@@H]4C[C@H](OS(=O)(=O)O)CC[C@]4(C)[C@H]3C[C@H](OS(=O)(=O)O)[C@]12C", "strain or isolate": "G", "dose": "10 µg/mL", "cell line": "CaSki", "value": "37%"}

The first 3 rows once more:

{"structure": "Nc1ncnc2c1ncn2[C@@H]1O[C@H](CO)[C@@H](O)[C@@H]1O", "strain or isolate": "333", "dose": "25 µM", "cell line": "VERO", "value": "21.7%"}
{"structure": "Cc1cn(N2C[C@H](CO)[C@H]2CO)c(=O)[nH]c1=O", "dose": "10 µg/mL", "cell line": "VERO", "value": "0%"}
{"structure": "CN1C(=O)NC(=O)N([C@H]2C[C@H](O)[C@@H](CO)O2)C1(C)C", "strain or isolate": "35D", "dose": "25 µM", "cell line": "BHK-21", "value": "80%"}